Target: T1, CD20 (B-lymphocyte antigen CD20), human, P11836 1-297
T1 sequence: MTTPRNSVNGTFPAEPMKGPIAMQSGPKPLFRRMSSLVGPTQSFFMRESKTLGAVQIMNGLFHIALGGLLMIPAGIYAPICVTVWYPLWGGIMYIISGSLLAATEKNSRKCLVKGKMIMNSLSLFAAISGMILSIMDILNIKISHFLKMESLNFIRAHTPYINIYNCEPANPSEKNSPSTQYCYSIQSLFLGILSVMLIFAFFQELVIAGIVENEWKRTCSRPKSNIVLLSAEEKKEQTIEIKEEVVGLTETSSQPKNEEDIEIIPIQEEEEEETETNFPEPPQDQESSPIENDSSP

αCD20scFv:SLT-1A version 2
Kd: 101 nM

αCD20scFv:SLT-1A version 1
Kd: 82.5 nM

Source: patent US20160017047
